Protein sequences can lack the tags named with them.
What was measured:
CpxR [1] = molecular target: T1, CpxR (UniProt A0A0H3GGB5); assay: DNase I footprinting; conditions: footprinting: 50 mM Tris-HCl pH 8.0, 100 mM KCl, 2.5 mM MgCl2, 0.2 mM DTT, 10% glycerol, 2 ug salmon sperm DNA, 25 C, recombinant protein, probe letters rebuilt from the primers and the genome
T1 sequence: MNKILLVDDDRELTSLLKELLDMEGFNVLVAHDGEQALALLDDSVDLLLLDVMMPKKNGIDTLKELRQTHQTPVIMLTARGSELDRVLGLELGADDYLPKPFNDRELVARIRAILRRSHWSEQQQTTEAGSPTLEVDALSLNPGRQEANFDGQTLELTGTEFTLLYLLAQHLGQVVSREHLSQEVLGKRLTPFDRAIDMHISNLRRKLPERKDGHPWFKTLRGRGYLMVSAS

CpxR [2] = molecular target: T1, CpxR; assay: EMSA; conditions: EMSA: Beyotime binding buffer (poly(dI-dC), DTT, glycerol, EDTA, NaCl, MgCl2, Tris), room temp, 2 pmol probe, recombinant protein, probe letters rebuilt from the primers and the genome
CpxR [3] = molecular target: T1, CpxR; assay: ITC; conditions: 0.1 uM protein, 0.01 uM DNA, Kd shown only in figure; ITC: HEPES pH 7.4, 25 C; recombinant protein; probe letters rebuilt from the primers and the genome
[4] = label: 5'-FAM on PtraY-FAM-F strand

Question: Does “CAACGATATTCCTTGTTTGAAGGTGGAGCTAGGTGTAGCGGCCGGATGTAATCAGGCCGCTACAGCTGGGATTAGGGGTCTGACGCTCAGTGGAACGAAAACTCACGTTAAGAAGTCATTTTTCAATATTATTGAAGCATTTATCAGGGTTATTGTCTCATGAGCGGATACATATTTGAATGTATTTAGAAAAATAAACAAATAGGGGTTCCGCGCACATTTCCCCGAAAAGTGCCACCTGACGTCTAAGAAACCATTATTATCATGACATTAACCTATATGTCAAGACCCGGCTGGTTATACACGCGTTTCCTGAACAATTCAGGGCGTTTTTCATGCCATTCCTTGAGCGCCTGAACGGGTGTTTTGTGTTGGAGCGCGCGTTGCGGAATGCTGTGGTTGT (double strand) [PblaKPC (Tn1721, ST11), FAM]” bind (CpxR [1]; two protected regions, R1 and R2, label: 5'-6-FAM on forward strand (Pkpc403-FAM-F))?
Answer: Result: binds

Question: Does “CAACGATATTCCTTGTTTGAAGGTGGAGCTAGGTGTAGCGGCCGGATGTAATCAGGCCGCTACAGCTGGGATTAGGGGTCTGACGCTCAGTGGAACGAAAACTCACGTTAAGAAGTCATTTTTCAATATTATTGAAGCATTTATCAGGGTTATTGTCTCATGAGCGGATACATATTTGAATGTATTTAGAAAAATAAACAAATAGGGGTTCCGCGCACATTTCCCCGAAAAGTGCCACCTGACGTCTAAGAAACCATTATTATCATGACATTAACCTATATGTCAAGACCCGGCTGGTTATACACGCGTTTCCTGAACAATTCAGGGCGTTTTTCATGCCATTCCTTGAGCGCCTGAACGGGTGTTTTGTGTTGGAGCGCGCGTTGCGGAATGCTGTGGTTGT (double strand) [PblaKPC (Tn1721, ST11), FAM]” bind (CpxR [2]; label: 5'-6-FAM on forward strand (Pkpc403-FAM-F))?
Answer: Result: binds

Question: Does “CAACGATATTCCTTGTTTGAAGGTGGAGCTAGGTGTAGCGGCCGGATGTAATCAGGCCGCTACAGCTGGGATTAGGGGTCTGACGCTCAGTGGAACGAAAACTCACGTTAAGAAGTCATTTTTCAATATTATTGAAGCATTTATCAGGGTTATTGTCTCATGAGCGGATACATATTTGAATGTATTTAGAAAAATAAACAAATAGGGGTTCCGCGCACATTTCCCCGAAAAGTGCCACCTGACGTCTAAGAAACCATTATTATCATGACATTAACCTATATGTCAAGACCCGGCTGGTTATACACGCGTTTCCTGAACAATTCAGGGCGTTTTTCATGCCATTCCTTGAGCGCCTGAACGGGTGTTTTGTGTTGGAGCGCGCGTTGCGGAATGCTGTGGTTGT (double strand) [PblaKPC (Tn1721, ST11), unlabeled]” bind (CpxR [3])?
Answer: Result: binds

Question: Does “CAACGATATTCCTTGTTTGAAGGTGGAGCTAGGTGTAGCGGCCGGATGTAATCAGGCCGCTACAGCTGGGATTATCACCGAGCTTGAAAAACGAATCAGGTCGGCGTTCATGGGTCGGCCACCTCGCCTGACCTCGGCATCCACGTTACGGACGGCCTCAGGAAGTCCTGGCCAAGCCCCGACTATTGGGGCGCGAAGATAGCACCGAGGGTACGCCGGTGTCAACACCAACTGAAAACTGACCCACTTTACCCCTGAATCACCAAAGTAATACTGACCCACCTGGATCATTCGGGTTTGGAATTTTTCCTGACCACTCCCGCCTTCCTCTTGTCCTTCAAGCGGTAGCTTTC (double strand) [PblaKPC Tn4401b (ST258), FAM]” bind (CpxR [2]; label: 5'-FAM on reverse strand (PkpcTn4401b-FAM-R))?
Answer: Result: binds

Question: Does “CTGCTTCTGTCTTTTGCTTTGATGAGTCGACGATTAGTTTCTTCATCTAATTTTAAAAGCACATTTTTTCCAGGCGCAGGTCGTGCGTTGCTCCTAATCGCTCTTTCCAATCGACCTCCAAAGTAAGATTACCAACCTTTAATAAATCTTACATTGGAGGATTTAAAAGTAAACAAACTAAGGAGAAATCTTGAGTAAATTATTTTCACAAATCAAAAGTACCGATGGTACTTTTGATTTAACAAAAAATTAACACCGTCTTTTAATATCGAAACCACATTCGATATAAACTTTCCATAACTTAGAGTATAGATCGATGACATTATGATATAGTCACGATCATCAAAGCTCAGTTCCTTTTTTATTTTACTAACTGTATTTTTTGAGGTTTGCACCCCAACACCTGTAATCTTAGAAATAGATGCATGAGAAAACCCAACCGCATACAGATTAAAGATAGCCCAGTCAGACTTTGCTGAACGCTGAATTCTTTCGATATATCTTTGCATCTTTATAGAAAAGTCATTGTATTCCATTGAAGGATGAGGTATCGGTTCATCTTCATTTATAAAAACCCATTTACTGTATGTATCTTCATTAATCGAGAACGTTTCAATAAAAACAGTCCAAAGTGAACCTGCCAACCAAATATTTTTAACAAGTACAGCAGAACCTTCTGAAAACGATTTCAGTTCTGACTGCATC (double strand) [PtraY, FAM]” bind (CpxR [1]; [4])?
Answer: Result: binds

Question: Does “CTGCTTCTGTCTTTTGCTTTGATGAGTCGACGATTAGTTTCTTCATCTAATTTTAAAAGCACATTTTTTCCAGGCGCAGGTCGTGCGTTGCTCCTAATCGCTCTTTCCAATCGACCTCCAAAGTAAGATTACCAACCTTTAATAAATCTTACATTGGAGGATTTAAAAGTAAACAAACTAAGGAGAAATCTTGAGTAAATTATTTTCACAAATCAAAAGTACCGATGGTACTTTTGATTTAACAAAAAATTAACACCGTCTTTTAATATCGAAACCACATTCGATATAAACTTTCCATAACTTAGAGTATAGATCGATGACATTATGATATAGTCACGATCATCAAAGCTCAGTTCCTTTTTTATTTTACTAACTGTATTTTTTGAGGTTTGCACCCCAACACCTGTAATCTTAGAAATAGATGCATGAGAAAACCCAACCGCATACAGATTAAAGATAGCCCAGTCAGACTTTGCTGAACGCTGAATTCTTTCGATATATCTTTGCATCTTTATAGAAAAGTCATTGTATTCCATTGAAGGATGAGGTATCGGTTCATCTTCATTTATAAAAACCCATTTACTGTATGTATCTTCATTAATCGAGAACGTTTCAATAAAAACAGTCCAAAGTGAACCTGCCAACCAAATATTTTTAACAAGTACAGCAGAACCTTCTGAAAACGATTTCAGTTCTGACTGCATC (double strand) [PtraY, FAM]” bind (CpxR [2]; [4])?
Answer: Result: binds
